“Also recorded” adds a separate entry of the source.
How the values were obtained:
MRSA SA 630 isolate = experiment: Chemoproteomic analysis (comparative ABPP, LC-MS/MS); type: cell-based, methicillin-resistant S. aureus; conditions: MRSA SA 630 vs untreated control, heatmap
[1] = tested on: Staphylococcus aureus ATCC 29213; experiment: as above; type: cell-based; conditions: S. aureus ATCC 29213 vs untreated control, heatmap

O=C(Nc1ccc(Cl)c(Cl)c1)c1ccc2ccccc2c1O [Compound 9]
Downregulated proteins after treatment (MRSA SA 630 isolate): Uncharacterized oxidoreductase SAUSA300_2422 (Q2FE2); also recorded: Large ribosomal subunit protein uL2 (A5IV31), Uncharacterized lipoprotein SAS2259 (Q6G6V2), Dihydroneopterin aldolase (Q5HRN9), and aminoacyltransferase FemB (Q5HPG5)
Downregulated proteins after treatment [1]: Arsenate reductase (P0A005)

O=C(Nc1cc(Cl)cc(Cl)c1)c1ccc2ccccc2c1O [Compound 10, N-(3,5-dichlorophenyl)-1-hydroxynaphthalene-2-carboxamide]
Downregulated proteins after treatment (MRSA SA 630 isolate): Uncharacterized oxidoreductase SAUSA300_2422 (Q2FE2)
Downregulated proteins after treatment [1]: Probable tautomerase SAV1363 (P67526), ribonuclease J2 (Q5HPR6), ATP-dependent protease ATPase subunit HslU (Q5HPT8), adenylosuccinate synthetase (P65884); also recorded: Arsenate reductase (P0A005)

From publication PMC12043106, “Insight into antistaphylococcal effect of chlorinated 1-hydroxynaphthalene-2-carboxanilides” (ADMET & DMPK, 2025)
